pIC50: −log10 of the molar value.

The test has as its target C-terminal truncated core protein (HBV core protein) (UniProt P03146, C48A/C61A/C107A, species not given). To be noted: read-out: Assembly Activity (IC50); BODIPY-FL labelled core protein, assembly started with NaCl, read after 6 min.

For orientation: pIC50 means the IC50 on a negative log10 scale, so that one unit is a factor of ten. With “3-yl)methyl]-4H,5H, 6H,7H-pyrazolo[1,5-a]pyrazin-2-amine [Example 25]”, the pIC50 is above 5.30.
